Data on three substances can be found in US6015881 (dated 2000).

This series is described as follows: general procedure: hybrid (solid and solution phase) peptide synthesis; 2-chlorotrityl chloride resin (super acid sensitive); HBTU/HOBT/DIEA (solid phase); HBTU/HOAT/EtPr2N (solution phase).
Where [1] appears, read: late stage modification step, HPLC.

The substance “Fmoc-Tyr(tBu)-Thr(tBu)-Ser(tBu)-Leu-Ile-His(trt)-Ser(tBu)-Leu-Ile-Glu(OtBu)-Glu(OtBu)-Ser(tBu)-Gln(trt)-Asn(trt)- Gln(trt)-Gln-Glu(OtBu)-Lys(Boc)-Asn(trt)-Glu(OtBu)-Gln(trt)-Glu(OtBu)-Leu- Leu-Glu(OtBu)-Leu-Asp(tBu)-Lys(Boc)-Trp(Boc)” returned a step yield (coupling step) of 88%. For the setting “coupling step, HPLC”, the “final HPLC purity” value is given as 85 A %.
Turning to “Ac-Tyr(tBu)-Thr(tBu)-Ser(tBu)-Leu-Ile-His(trt)-Ser(tBu)-Leu-Ile-Glu(OtBu)-Glu(OtBu)-Ser(tBu)-Gln(trt)-Asn(trt)-Gln(trt)- Gln-Glu(OtBu)-Lys(Boc)-Asn(trt)-Glu(OtBu)-Gln(trt)-Glu(OtBu)-Leu-Leu-Glu(OtBu)-Leu-Asp(tBu)-Lys(Boc)-Trp(Boc)-Ala”, the step yield was determined as 96% (coupling step) and 91% (late stage modification step). Also, the “final HPLC purity” value (coupling step, HPLC) was determined as 92 A %. Moreover, the “crude HPLC purity” value under setting [1] was found to be 90 A %.
Turning to “H-Tyr(tBu)-Thr(tBu)-Ser(tBu)-Leu-Ile-His(trt)-Ser(tBu)-Leu-Ile-Glu(OtBu)-Glu(OtBu)-Ser(tBu)-Gln(trt)-Asn(trt)-Gln(trt)- Gln-Glu(OtBu)-Lys(Boc)-Asn(trt)-Glu(OtBu)-Gln(trt)-Glu(OtBu)-Leu-Leu-Glu(OtBu)-Leu-Asp(tBu)-Lys(Boc)-Trp(Boc)-Ala”, the step yield (late stage modification step) is 95%. In addition, under setting [1], the “final HPLC purity” value amounted to 90 A %.
